In PMC8565742 (PLoS Neglected Tropical Diseases, 2021):
Structures were worked out from names or drawings and are uncertain.

By UniProt entry, the sequences of proteins in these tests, tags left out. Residues count along the entry.
UniProt A0A5K4F0X5, 1-2268: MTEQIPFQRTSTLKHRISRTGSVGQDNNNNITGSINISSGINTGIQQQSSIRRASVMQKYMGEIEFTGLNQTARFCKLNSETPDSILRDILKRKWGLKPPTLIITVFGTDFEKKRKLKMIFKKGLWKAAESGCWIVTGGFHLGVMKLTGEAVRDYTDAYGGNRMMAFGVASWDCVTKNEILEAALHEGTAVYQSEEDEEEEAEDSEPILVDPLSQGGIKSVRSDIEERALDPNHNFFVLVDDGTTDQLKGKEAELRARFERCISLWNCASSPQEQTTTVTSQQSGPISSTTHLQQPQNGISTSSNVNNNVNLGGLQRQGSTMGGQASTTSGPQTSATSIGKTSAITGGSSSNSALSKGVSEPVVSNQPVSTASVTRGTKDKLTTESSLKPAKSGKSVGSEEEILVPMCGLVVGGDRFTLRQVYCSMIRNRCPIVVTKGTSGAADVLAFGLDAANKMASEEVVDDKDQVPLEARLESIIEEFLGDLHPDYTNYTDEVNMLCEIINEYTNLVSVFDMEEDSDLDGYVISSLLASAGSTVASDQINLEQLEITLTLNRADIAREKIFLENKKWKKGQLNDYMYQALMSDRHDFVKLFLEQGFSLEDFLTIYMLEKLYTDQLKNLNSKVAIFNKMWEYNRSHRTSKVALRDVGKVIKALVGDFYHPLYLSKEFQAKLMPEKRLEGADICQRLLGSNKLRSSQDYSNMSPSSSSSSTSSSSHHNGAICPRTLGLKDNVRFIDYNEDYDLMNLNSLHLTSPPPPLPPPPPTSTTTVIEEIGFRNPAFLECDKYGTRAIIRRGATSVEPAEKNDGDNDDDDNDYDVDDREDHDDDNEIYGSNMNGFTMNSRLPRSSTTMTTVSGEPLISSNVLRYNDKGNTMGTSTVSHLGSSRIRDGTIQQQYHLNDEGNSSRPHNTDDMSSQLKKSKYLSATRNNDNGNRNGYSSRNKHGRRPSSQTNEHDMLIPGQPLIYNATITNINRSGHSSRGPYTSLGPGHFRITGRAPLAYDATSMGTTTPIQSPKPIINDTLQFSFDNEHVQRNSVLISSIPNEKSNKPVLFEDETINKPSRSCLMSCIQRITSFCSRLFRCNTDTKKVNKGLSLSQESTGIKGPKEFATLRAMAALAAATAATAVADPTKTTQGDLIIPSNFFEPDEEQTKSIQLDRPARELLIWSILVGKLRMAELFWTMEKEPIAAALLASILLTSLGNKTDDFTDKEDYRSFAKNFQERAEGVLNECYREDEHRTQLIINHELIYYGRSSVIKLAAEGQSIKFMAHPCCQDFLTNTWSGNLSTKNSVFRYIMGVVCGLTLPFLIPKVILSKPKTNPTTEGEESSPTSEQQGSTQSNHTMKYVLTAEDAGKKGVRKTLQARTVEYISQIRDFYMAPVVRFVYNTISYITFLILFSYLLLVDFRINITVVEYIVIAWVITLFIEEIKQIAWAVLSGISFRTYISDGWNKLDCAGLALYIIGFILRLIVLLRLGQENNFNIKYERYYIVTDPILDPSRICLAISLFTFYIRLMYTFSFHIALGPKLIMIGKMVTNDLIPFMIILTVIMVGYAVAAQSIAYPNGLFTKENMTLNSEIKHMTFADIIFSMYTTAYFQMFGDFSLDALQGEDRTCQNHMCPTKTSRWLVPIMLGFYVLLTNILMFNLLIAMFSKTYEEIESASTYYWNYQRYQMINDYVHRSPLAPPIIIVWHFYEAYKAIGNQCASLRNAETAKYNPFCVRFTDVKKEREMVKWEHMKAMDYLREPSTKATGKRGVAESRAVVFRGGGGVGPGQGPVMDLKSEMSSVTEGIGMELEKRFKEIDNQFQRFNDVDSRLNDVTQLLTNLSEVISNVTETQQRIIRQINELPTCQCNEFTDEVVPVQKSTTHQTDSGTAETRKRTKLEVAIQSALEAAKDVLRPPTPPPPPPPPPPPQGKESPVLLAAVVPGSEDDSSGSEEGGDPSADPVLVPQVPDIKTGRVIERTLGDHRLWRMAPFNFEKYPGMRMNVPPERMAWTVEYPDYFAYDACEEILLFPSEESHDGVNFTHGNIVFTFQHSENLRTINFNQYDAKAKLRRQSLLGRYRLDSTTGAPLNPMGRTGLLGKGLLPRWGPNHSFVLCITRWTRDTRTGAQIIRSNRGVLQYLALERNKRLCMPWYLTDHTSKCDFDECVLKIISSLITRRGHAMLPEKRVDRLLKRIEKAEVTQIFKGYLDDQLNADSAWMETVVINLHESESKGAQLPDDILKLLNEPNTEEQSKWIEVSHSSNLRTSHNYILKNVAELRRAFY

Key:
[1] = system: untransfected HEK293 cells; experiment: Counterscreen, agonist mode, Ca2+ signal in untransfected HEK cells; type: cell-based; details: S3 Table, counterscreen titration; for EC50: read-out: HEK AG Final EC50, unit inferred
Method: (§1) HEK cells were transfected with cDNA (400μg/ml DNA) encoding Sm.TRPMPZQ using a Maxcyte STX electroporation system and incubated overnight at 37°C. This system is uniquely capabable of large scale transfections providing one batch of cells ready for large scale HTS [30]. Briefly, the HEK cells were resuspended at 10^8/ml in Maxcyte electroporation buffer. Plasmid DNA was added to the cells in buffer to achieve a concentration of 400 μg/ml from a stock of 5mg/ml (in TE buffer). This mixture was loaded into the appropriate cassette, inserted into the machine, and cells electroporated. Cells were then frozen to provide a single supply of transfected cells for all subsequent assays. On the day of the assays, cells were thawed in a 37°C waterbath, and resuspended in DMEM + 10% FBS and counted. The cells were pelleted by centrifugation at 170xg for 5 minutes. The media was aspirated, and the remaining pellet was resuspended in 1x HBSS with 20 mM HEPES and 1% DMSO to achieve 1.33x10^6cells/ml. This cell suspension was then dispensed at 3 μl/well to the 1536 well plates (Greiner Bio One part 789072) at a density of 4,000 cells/well. Measurements of fluorescence intensity (λex = 470 nm, λem = 535 nm) were made using a FLIPR (Molecular Devices FLIPR Tetra). A read of basal fluorescence values was made (5s) prior to addition of compounds or controls (30 nl). In both ‘agonist’ and ‘antagonist mode’, the total assay volume was 6μl (1% DMSO). […] Ligand performance was categorized using an algorithm based on the activity of the entire dataset to define a ‘hit-cutoff’ parameter for both agonist-mode and antagonist-mode screening. Any compound with greater percent activation than this cutoff was assigned as ‘active’ prior to titration and counter-screening. Titration assays were executed using the same reagents, protocols and detection systems, done as 10-point concentration-response curves, performed in triplicate. Counter-screening was performed using untransfected HEK293 cells for comparison with results testing the same compounds effect on cells expressing Sm.TRPMPZQ, with ATP used as the positive control. For each compound, activity was plotted against compound concentration and data were fitted with a sigmoidal function. In order to be considered a hit at this stage a compound must achieve a EC50<5 μM for agonists and IC50 <5 μM for antagonists. All compounds selected for titration were subjected to LC-MS analysis to confirm mass and sample purity. ChemAxon (https://www.chemaxon.com) academic licensing was provided for the use of Instant JChem (ver. 15.10.12.0) to perform compound mining of the libraries utilized in this effort.

[2] = system: untransfected HEK293 cells; experiment: Counterscreen, antagonist mode, Ca2+ signal in untransfected HEK cells; type: cell-based; details: S3 Table, counterscreen titration
Method: as §1, with “Counter-screening was performed using untransfected HEK293 cells for comparison with results testing the same compounds effect on cells expressing Sm.TRPMPZQ, with ATP used as the positive control. For each compound, activity was plotted against compound concentration and data were fitted with a sigmoidal function. In order to be considered a hit at this stage a compound must achieve a EC50<5 μM for agonists and IC50 <5 μM for antagonists. All compounds selected for titration were subjected to LC-MS analysis to confirm mass and sample purity. ChemAxon (https://www.chemaxon.com) academic licensing was provided for the use of Instant JChem (ver. 15.10.12.0) to perform compound mining of the libraries utilized in this effort.” left out

Sm.TRPMPZQ [3] = biological target: T1, Sm.TRPMPZQ (Schistosoma mansoni, UniProt A0A5K4F0X5); details: S3 Table, titration
Sm.TRPMPZQ [4] = biological target: T1, Sm.TRPMPZQ; details: S3 Table, titration; remark: listed apart in the source

With `FC(F)(F)c1cc(N/N=C2/CCSc3sccc32)cc(C(F)(F)F)c1` the “HEK AG Averaged Max % Response” value [1] was 12.2169%, the EC50 [1] was > 12.4 µM and the “HEK ANT Averaged Max % Response” value [2] was 27.5203%. The “Sm.TRPMPZQ AG Averaged Max % Response” value (Sm.TRPMPZQ [3]) was 1.692% and the “Sm.TRPMPZQ ANT Averaged Max % Response” value (Sm.TRPMPZQ [4]) was 79.9613%.
For `Cc1ccc(S(=O)(=O)Nc2ccc(-n3ccc(C(F)(F)F)n3)cc2)cc1`, the “HEK AG Averaged Max % Response” value [1] was 46.6577%, the EC50 [1] was > 12.4 µM and the “HEK ANT Averaged Max % Response” value [2] was 74.9133%. For the same compound, the “Sm.TRPMPZQ AG Averaged Max % Response” value (Sm.TRPMPZQ [3]) was 22.2528% and the “Sm.TRPMPZQ ANT Averaged Max % Response” value (Sm.TRPMPZQ [4]) was 65.0776%.
`O=c1[nH]c2ccccc2c(=O)n1C(c1ccc(Cl)cc1)P(=O)(Oc1ccccc1)Oc1ccccc1` (stereo not drawn) was tested, and the “HEK AG Averaged Max % Response” value [1] was 22.9012%, the EC50 [1] was > 12.4 µM and the “HEK ANT Averaged Max % Response” value [2] was 29.6793%. For the same compound, the “Sm.TRPMPZQ AG Averaged Max % Response” value (Sm.TRPMPZQ [3]) was 9.607% and the “Sm.TRPMPZQ ANT Averaged Max % Response” value (Sm.TRPMPZQ [4]) was 93.9968%.
